{"source": "paper PMC9604285", "about": "“Rat Group IIA Secreted Phospholipase A2 Binds to Cytochrome c Oxidase and Inhibits Its Activity: A Possible Episode in the Development of Alzheimer’s Disease” (International Journal of Molecular Sciences, 2022)", "biological_target": "subunit II of cytochrome c oxidase (CCOX-II) (porcine (endogenous in cerebral cortex)) (UniProt P50667)", "assay": "cross-linking", "note": "pIC50: −log10 of the molar value.", "data": [{"substance": "ammodytoxin (Atx), unlabelled (enzyme)", "values": [{"measurement": "pIC50", "value": 8.22}]}]}
